Data on four sequences can be found in article PMC11735809, “Structural basis of Spliced Leader RNA recognition by the Trypanosoma brucei cap-binding complex” (Nature Communications, 2025).

Construct, isoform or probe ends are uncertain for at least one entry. For some of these results: The comparison behind a weaker result is the experiment's own reference, which may not be listed here. For some of these results: At least one verdict rests on a figure or table, not on a statement of the authors.

Series [1] relates to TbCBC-trimer (TbCBP20-TbCBP110-TbCBP30) (Trypanosoma brucei). Description: cryo-EM. To be noted: 2.8 A, m7GTP moiety resolved, following nucleotides flexible; 5' cap4: m7Gppp, m6,6Am1, Am2, Cm3, m3Um4; recombinant protein; residues 1-187.
The test system of series [2] is TbCBC-dimer (TbCBP20-TbCBP110) (Trypanosoma brucei). Kind of series: EMSA. To be noted: EMSA: 20 mM HEPES pH 7.5, 50 mM NaCl, 5 mM MgCl2, Tween (0.05% in RNA buffer), RNA stock 50 nM mixed 1:1, 30 min on ice, 6% native PAGE 4 C, recombinant protein, residues 1-187, label: none (SYBR Gold).
For series [3], the system named is TbCBC-tetramer (TbCBP20-TbCBP110-TbCBP30-TbCBP66) (Trypanosoma brucei). Kind of series: EMSA. To be noted: binding independent of m7G, EMSA: 20 mM HEPES pH 7.5, 50 mM NaCl, 5 mM MgCl2, Tween (0.05% in RNA buffer), RNA stock 50 nM mixed 1:1, 30 min on ice, 6% native PAGE 4 C, recombinant protein, residues 1-187, label: none (SYBR Gold). In general terms: A gel shift assay detects complexes by their altered migration in electrophoresis.

Series [4] has as its system TbCBC-trimer (TbCBP20-TbCBP110-TbCBP30) (Trypanosoma brucei). Description: EMSA. To be noted: EMSA: 20 mM HEPES pH 7.5, 50 mM NaCl, 5 mM MgCl2, Tween (0.05% in RNA buffer), RNA stock 50 nM mixed 1:1, 30 min on ice, 6% native PAGE 4 C, recombinant protein, residues 1-187, label: none (SYBR Gold).
Where [5] appears, read: similar affinity to cap4, 5' m7Gppp cap (cap0).
[6] abbreviates: similar affinity to cap0, 5' cap4: m7Gppp, m6,6Am1, Am2, Cm3, m3Um4.

Take “AACUA [cap4 hexanucleotide m7Gpppm6,6AmpAmpCmpm3UmpA]”: the binding result in series [1] is “binds”.

As for “AACUAACGCUAUUAUUAGAACAGUUUCUGUACUAUAUUG [OH-SLe (uncapped SL RNA exon, 39 nt)]”, the binding result in series [2] (does not strongly interact) is “binds more weakly”; in series [3], “binds”; in series [4] (does not strongly interact), “binds more weakly”.

On to “AACUAACGCUAUUAUUAGAACAGUUUCUGUACUAUAUUG [cap0-SLe]”, for which the binding result in series [2] (setting [5]), in series [3] (5' m7Gppp cap (cap0)) and in series [4] (setting [5]) was “binds” throughout.

In the case of “AACUAACGCUAUUAUUAGAACAGUUUCUGUACUAUAUUG [cap4-SLe]”, the binding result was “binds” in series [2] (setting [6]); “binds” in series [3] (5' cap4: m7Gppp, m6,6Am1, Am2, Cm3, m3Um4); “binds” in series [4] (setting [6]).
